Pooled drug test results. Numbers come from NIAID ChemDB, via PubChem.

All rows: tests in culture; species: HIV-1; read by: cytopathic effect / trypan blue; measure: EC50

ECn is the concentration giving n% inhibition of infection, replication or growth. An empty or dashed field is not shown. Neighbouring rows are from separate reports.

structure | cells | strain or isolate | result
Nc1nc2c(ncn2CC(CF)OCP(=O)(O)O)c(=O)[nH]1 | MT-4 | IIIB | 13 µM
Nc1nc(N)c2ncn([C@H]3C=C[C@@H](CO)O3)c2n1 | MT-4 | IIIB | >125 µM
CCc1cn([C@@H]2O[C@H](CO[Si](C)(C)C(C)(C)C)C3(OS(=O)(=O)C=C3N)[C@H]2O[Si](C)(C)C(C)(C)C)c(=O)[nH]c1=O | MT-4 | IIIB | 0.0066 µM
Nc1nc2c(ncn2[C@H]2CC[C@@H](CO)O2)c(=O)[nH]1 | MT-4 | IIIB | 15.4 µM
C[C@@H]1O[C@@H](O[C@H]2[C@H](O[C@H]3[C@H](O[C@H]4CC[C@@]5(C)[C@@H](CC[C@]6(C)[C@@H]5CC=C5[C@@H]7CC(C)(C)C[C@@H](O)[C@]7(C)CC[C@]56C)[C@@]4(C)CO)O[C@H](C(=O)O)[C@@H](O)[C@@H]3O)O[C@H](CO)[C@H](O)[C@@H]2O)[C@H](O)[C@H](O)[C@H]1O | MT-4 | IIIB | <125 µg/mL
Nc1ccn(CCOCP(=O)(O)O)c(=O)n1 | MT-4 | IIIB | >125 µM
Cc1cn([C@H]2C[C@H](N=[N+]=[N-])[C@@H](CO)O2)c(=O)[nH]c1=O | MT-4 | - | 0.004 µM
CC(=O)O[C@@H]1[C@H](n2cc(C)c(=O)[nH]c2=O)O[C@@H](COC(=O)c2ccccc2)C12OS(=O)(=O)C=C2N | MT-4 | IIIB | 35 µg/mL
Nc1ccn([C@H]2C=C[C@@H](CO)O2)c(=O)n1 | MT-4 | IIIB Laboratory strain | 0.13 µM
Nc1nccc2c1ncn2[C@@H]1C=C(CO)[C@@H](O)[C@H]1O | MT-4 | IIIB | >0.025 µg/mL
Cc1cn([C@@H]2O[C@H](CO[Si](C)(C)C(C)(C)C)[C@@]3(OS(=O)(=O)C=C3N)[C@H]2O[Si](C)(C)C(C)(C)C)c(=O)n(CC(=O)N[C@@H](CCC(=O)O)C(=O)O)c1=O | MT-4 | IIIB | 5 µM
Cc1cn([C@@H]2O[C@H](CC3CCCCC3)C3(OS(=O)(=O)C=C3N)[C@H]2OC(=O)c2ccccc2)c(=O)[nH]c1=O | MT-4 | IIIB | >4 µg/mL
CSc1ccc(OP(=O)(OC[C@@H]2CC[C@H](n3cnc4c(=O)[nH]cnc43)O2)OC[C@@H]2CC[C@H](n3cnc4c(=O)[nH]cnc43)O2)cc1 | MT-4 | IIIB | ≥250 µM
Nc1ncnc2c1ncn2C[C@@H](CO)OCP(=O)(O)O | MT-4 | IIIB | >20 µM
Nc1ccn(C[C@@H](CO)OCP(=O)(O)O)c(=O)n1 | MT-4 | IIIB | >250 µM
Nc1nc2c(ncn2C/C=C\CO)c(=O)[nH]1 | ATH8 | IIIB | >500 µM
Nc1nc(N)c2ncn(CCOCP(=O)(O)O)c2n1 | MT-4 | IIIB | 1 µM
Nc1nc2c(ncn2C/C=C/CO)c(=O)[nH]1 | ATH8 | IIIB | >500 µM
Cc1cn(CCOCP(=O)(O)O)c(=O)[nH]c1=O | MT-4 | IIIB | >125 µM
Nc1nc(Br)c2ncn([C@H]3CC[C@@H](CO)O3)c2n1 | MT-2 | IIIB | <20 µM
Cc1cn([C@H]2C[C@H](N=[N+]=[N-])[C@@H](COP(=O)(O)OP(=O)(O)OP(=O)(O)O)O2)c(=O)[nH]c1=O | ATH8 | IIIB | 19 µM
O=C1CN=C(c2ccc[nH]2)c2cc(Cl)ccc2N1 | MT-2 | IIIB/LAI | >1.6 µM
CS(=O)(=O)c1ccc(OP(=O)(OC[C@@H]2CC[C@H](n3ccc(=O)[nH]c3=O)O2)OC[C@@H]2CC[C@H](n3ccc(=O)[nH]c3=O)O2)cc1 | MT-4 | IIIB | >250 µM
Cc1cn([C@H]2CC[C@@H](CO)O2)c(=O)[nH]c1=O | ATH8 | IIIB Laboratory strain | <200 µM
CCCOC(=O)C(C)NP(=O)(OC[C@@H]1C=C[C@H](n2cc(C)c(=O)[nH]c2=O)O1)Oc1ccccc1 | CEM + CEM TK- | IIIB | 0.047 µM
Cc1ccc(C(=O)Nc2ccc(S(=O)(=O)O)c3cc(S(=O)(=O)O)cc(S(=O)(=O)O)c23)cc1NC(=O)c1cccc(NC(=O)Nc2cccc(C(=O)Nc3cc(C(=O)Nc4ccc(S(=O)(=O)O)c5cc(S(=O)(=O)O)cc(S(=O)(=O)O)c45)ccc3C)c2)c1 | MT-4 | - | 32 µM
CC(C)(C)[Si](C)(C)OC[C@H]1O[C@@H](n2ccc(=O)[nH]c2=O)[C@H](O[Si](C)(C)C(C)(C)C)C12OS(=O)(=O)C=C2N | MT-4 | HE | 0.687 µM
Nc1nc2c(ncn2COC(CO)CO)c(=O)[nH]1 | MT-4 | - | >500 µM
Cc1cn([C@H]2C[C@H](N=[N+]=[N-])[C@@H](CO)O2)c(=O)[nH]c1=O | MT-4 | IIIB Laboratory strain | 0.006 µM
N#Cc1cn([C@H]2CC[C@@H](CO)O2)c2ncnc(N)c12 | MT-4 | IIIB | 8.5 µM
Nc1ccn([C@H]2CC[C@@H](COP(=O)(O)O)O2)c(=O)n1 | ATH8 | IIIB Laboratory strain | <10 µM
COCc1cn([C@H]2C[C@H](N=[N+]=[N-])[C@@H](CO)O2)c(=O)[nH]c1=O | MT-4 | IIIB | 42 µM
CC(C)[C@H](NC(=O)N(C)Cc1ccccn1)C(=O)N[C@@H](Cc1ccccc1)[C@@H](O)[C@H](O)[C@H](Cc1ccccc1)NC(=O)[C@@H](NC(=O)N(C)Cc1ccccn1)C(C)C | ATH8 | IIIB | <8.5 µM
Nc1nc(N)c2ncn(CC(CF)OCP(=O)(O)O)c2n1 | MT-4 | IIIB | 10 µM
C=CCn1c(=O)c(C)cn([C@@H]2O[C@H](CO[Si](C)(C)C(C)(C)C)C3(OS(=O)(=O)C=C3N)[C@H]2O[Si](C)(C)C(C)(C)C)c1=O | MT-4 | HE | 0.164 µM
O=c1ccn([C@H]2CC[C@@H](CO)O2)c(=O)[nH]1 | MT-4 | IIIB Laboratory strain | 48 µM
Cc1cn([C@@H]2O[C@H](CC3CCCCC3)C3(OS(=O)(=O)C=C3N)[C@H]2O[Si](C)(C)C(C)(C)C)c(=O)[nH]c1=O | MT-4 | IIIB | >4 µg/mL
Cc1cn([C@H]2C=C[C@@H](CO)O2)c(=O)[nH]c1=O | MT-4 | IIIB | 0.22 µM
Nc1ncnc2c1ncn2CC(CF)OCP(=O)(O)O | MT-4 | IIIB | 23 µM
Cc1cn([C@H]2C=C[C@@H](CO)O2)c(=O)[nH]c1=O | MT-4 | IIIB | 0.01 µM
Nc1ncnc2c1ncn2[C@H]1CC[C@@H](CO)O1 | ATH8 | IIIB | <20 µM
Cc1cn([C@H]2CC[C@@H](CO)O2)c(=O)nc1N | ATH8 | IIIB Laboratory strain | >100 µM
Nc1ncnc2c1ncn2CC(O)CCO | ATH8 | IIIB | >100 µM
Nc1nc(=O)n([C@H]2CC[C@@H](CO)O2)cc1F | ATH8 | IIIB Laboratory strain | <0.5 µM
Cc1cn([C@H]2C[C@H](N=[N+]=[N-])[C@@H](CO)O2)c(=O)[nH]c1=O | MT-4 | NL432 | 0.003 µM
Cc1cn([C@H]2CC[C@@H](CO)O2)c(=O)[nH]c1=O | ATH8 | IIIB | <100 µM
OC[C@@H]1CC[C@H](n2cnc3cncnc32)O1 | ATH8 | IIIB | >200 µM
O=c1ccn([C@H]2C[C@H](F)[C@@H](CO)O2)c(=O)[nH]1 | MT-4 | IIIB | 0.275 µM
Nc1nc(Cl)nc2c1ncn2[C@H]1CC[C@@H](CO)O1 | MT-2 | IIIB | >2 µM
Nc1nc2c(ncn2[C@@H]2C[C@H](CO)[C@H]2CO)c(=O)[nH]1 | ATH8 | IIIB | <1 µM
Cc1cn([C@H]2C[C@H](N=[N+]=[N-])[C@@H](COP(=O)(O)OP(=O)(O)CP(=O)(O)O)O2)c(=O)[nH]c1=O | ATH8 | IIIB | 7 µM
Cc1cn([C@@H]2C[C@H](CO)[C@H]2CO)c(=O)[nH]c1=O | ATH8 | IIIB | >500 µM
NC(=O)c1ncn([C@@H]2O[C@H](CO)[C@@H](O)[C@H]2O)n1 | MT-4 | - | >500 µM
Cc1cn([C@H]2C[C@H](N=[N+]=[N-])[C@@H](COP(=O)(O)CP(=O)(O)OP(=O)(O)O)O2)c(=O)[nH]c1=O | ATH8 | IIIB | >200 µM
Nc1ncnc2c1ncn2CCOCP(=O)(O)O | MT-4 | IIIB | 2 µM
Nc1ncnc2c1ncn2[C@H]1C[C@@H](F)[C@@H](CO)O1 | MT-4 | IIIB | 271 µM
C[C@H](Cn1cnc2c(N)ncnc21)OCP(=O)(O)O | MT-4 | IIIB | 5.9 µM
Cc1cn([C@H]2C=C[C@@H](CO)O2)c(=O)[nH]c1=O | ATH8 | IIIB | 4.1 µM
O=c1[nH]c(=O)n([C@H]2C[C@H](O)[C@@H](CO)O2)cc1/C=C/Br | MT-4 | - | >500 µM
Nc1nc2c(ncn2C=C=CCO)c(=O)[nH]1 | ATH8 | IIIB | >500 µM
Nc1ccn([C@H]2CC[C@@H](CO)O2)c(=O)n1 | ATH8 | IIIB | 0.2 µM
Nc1ccn([C@H]2CC[C@@H](CO)O2)c(=O)n1 | MT-4 | - | 0.6 µM
O=c1[nH]c(=O)n([C@H]2C[C@H](F)[C@@H](CO)O2)cc1CO | MT-4 | IIIB | 100 µM
Nc1ncnc2c1ncn2CCOCP(=O)(O)O | MT-4 | IIIB | 7 µM
Nc1ncnc2c1ncn2[C@H]1CC[C@@H](CO)O1 | ATH8 | IIIB | <100 µM
Nc1ncnc2c1ncn2[C@@H]1C[C@H](CO)[C@H]1CO | ATH8 | IIIB | 1.8 µM
Nc1nc2c(ncn2CCOCP(=O)(O)O)c(=O)[nH]1 | MT-4 | IIIB | 2.7 µM
Cc1cn([C@H]2CC[C@@H](CO)O2)c(=O)[nH]c1=O | MT-4 | IIIB Laboratory strain | 0.2 µM
Nc1ncnc2c1ncn2[C@H]1CC[C@@H](CO)O1 | ATH8 | IIIB | <10 µM
Nc1nc(N)c2ncn([C@@H]3C[C@H](CO)[C@H]3CO)c2n1 | ATH8 | IIIB | 100 µM
Nc1ccn(C/C=C/CO)c(=O)n1 | ATH8 | IIIB | >100 µM
Nc1ccn([C@H]2CC[C@@H](CO)O2)c(=O)n1 | ATH8 | IIIB Laboratory strain | <0.5 µM
O=c1[nH]cnc2c1ncn2[C@H]1CC[C@@H](CO)O1 | MT-4 | IIIB | 10 µM
Cc1cn([C@@H]2O[C@H](CO[Si](C)(C)C(C)(C)C)C3(OS(=O)(=O)C=C3N)[C@H]2O[Si](C)(C)C(C)(C)C)c(=O)n(CC(=O)N[C@@H](C)C(=O)OCc2ccccc2)c1=O | MT-4 | IIIB | 0.18 µM

A second listing of 6 rows from above:

structure | cells | strain or isolate | result
Cc1cn([C@H]2C[C@H](N=[N+]=[N-])[C@@H](CO)O2)c(=O)[nH]c1=O | MT-4 | - | 0.004 µM
Nc1nc2c(ncn2[C@@H]2C[C@H](CO)[C@H]2CO)c(=O)[nH]1 | ATH8 | IIIB | <1 µM
Nc1nc2c(ncn2CCOCP(=O)(O)O)c(=O)[nH]1 | MT-4 | IIIB | 2.7 µM
CS(=O)(=O)c1ccc(OP(=O)(OC[C@@H]2CC[C@H](n3ccc(=O)[nH]c3=O)O2)OC[C@@H]2CC[C@H](n3ccc(=O)[nH]c3=O)O2)cc1 | MT-4 | IIIB | >250 µM
N#Cc1cn([C@H]2CC[C@@H](CO)O2)c2ncnc(N)c12 | MT-4 | IIIB | 8.5 µM
Cc1cn([C@H]2C[C@H](N=[N+]=[N-])[C@@H](COP(=O)(O)OP(=O)(O)CP(=O)(O)O)O2)c(=O)[nH]c1=O | ATH8 | IIIB | 7 µM